Tests used:
[1] = target: T1, His-OpaR (Vibrio parahaemolyticus RIMD2210633) (UniProt Q79YV4); assay: EMSA; conditions: recombinant protein; residues 1-204; protein details: 6xHis (pET28a); label: 5'-32P; probe letters rebuilt from the primers and the genome
T1 sequence: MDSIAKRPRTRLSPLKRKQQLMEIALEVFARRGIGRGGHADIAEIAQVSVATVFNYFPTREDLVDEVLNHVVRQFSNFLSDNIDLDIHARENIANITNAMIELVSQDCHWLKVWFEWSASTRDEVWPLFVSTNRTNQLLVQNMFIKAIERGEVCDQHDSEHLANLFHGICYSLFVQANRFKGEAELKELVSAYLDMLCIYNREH

Chains of the proteins cited; added tags and fusions are not shown. Residues count along the entry.
UniProt Q05938, 1-176: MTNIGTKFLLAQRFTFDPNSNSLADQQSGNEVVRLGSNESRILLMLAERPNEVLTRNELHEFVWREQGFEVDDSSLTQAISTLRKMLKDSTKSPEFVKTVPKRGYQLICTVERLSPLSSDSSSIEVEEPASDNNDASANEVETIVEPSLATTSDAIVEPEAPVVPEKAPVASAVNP

[2] = target: His-ToxR (Vibrio parahaemolyticus RIMD2210633) (UniProt Q05938); assay: EMSA; conditions: recombinant protein; residues 1-176; protein details: 6xHis (pET28a); label: 5'-32P; probe letters rebuilt from the primers and the genome

Row | Sequence | binding result [1] | binding result [2]
1 | CAATGGTGAATATGCCGTGTTGATAATATCTATTAATATTATATAGTTACATGCACGTCTATACCCTAGGTGTAGAGTTCTGCATTAGGTAGTGATTACTACCTGAGTTGTGTATCTATGATGAAGTGAAATTAGCCTAGCATCGCTTCATATTAGTTACACCTTTGTGGGTGTGACACGCACTCACCTTTTTATTCATACTTCCTCAGTCGCGATAGGTTATTTATTGCTACTGAGGAAGGCGTATCCCTCCAGAACCTCAACCTTCGGCTATCAGTGCTTAAATTGAATTTGTTAACTTCTGCCCAAAAGTAAAAAACTGTTTTTGCTTAAAGCCTGCCTTTTGAGTTGGATTGAAGGGTAATAAGTTTGAATTGATAGTTAAAACAACCAAATAACCTGTGGTTTTGTTATTTCTCGGGCATTTCGGTTTTCTGGAAGTTTTCTATGTGATTGAATGTTATGAATTAAATTAGTAGCATTAGCACACCAAATCGTACTTGTAAGCCTTATCAGCTTAAACGTCACCGCAACCATGTTTACGATGTTGGTTGTGGAGAATTCAAATGCATTTAGTTTGCAAATTTATACCTAGCTCGAAGCTTTCCTCCAACGAGCTATC (double strand) [VP1388 promoter EMSA fragment] | binds | –
2 | GCCAATCTTTGCTCGTTCAGTTTCTTTTTCTCAATGGCTTTAACAACCAACTGATCAATGTATCCTTTGGCTGCACCCTGAATATCAGACACTTTGCACTCTTTTATGGAACAAATATTATTAGACCGAAATAATATTTGCTGAAACATCCTTGTTTCAAGGGTAGTATTTAAAACGAACAGTAAGCCTATTATTTTAGTTATAATTACTAAGTTATTAGACTCTTTGACTTACGCTTTCACTACCTGAATTACGTTGTTTTAGAAATTAAAATTTCAACAACGTAATATGACTTCATTTTCATTATATATTTCGACAAAGAATGATTAGCACGCTAGTAATTGAAGTAGCGCTTTATCACCCCCGAAGTCAAACATCAGCAGCGTTACGGGCTGGTTAAAGTGATGATATTTAACCGCAAATGCTCCAAGAGCAAGAGATGAACAGTTTCCCATCGTCCCCCATAACTCGTTGATAAGCAAAGGTTGTTCTGGGTTAATAAATCGCTCAGCTTTGGCACCCAGCGCGAAACCGTAATCTTCACTGTGCGCGCGCAGGTTCGTCATATCAGAATACACTTCACCGAAAGCAGTAAGCTTTTTACTCGCACGCTGTACAAGACGATACATACCTCTTCGGTCTGAAGTGTTCAGTTCTGTATCGATATAACCAAGTTGCGCTAAAGGCTTAAGTTTGAGTGTTTCTACGGTATTTCTTCGGCAAAA (double strand) [VP1400 promoter EMSA fragment] | binds | binds
3 | TCTTCTTGTGAAGTCGCTGAAAAACATAATGTTAAGTTCCAACTGAGTTGATAATAAAATAATAAAGATAGATTTTTTTATTGTATTCGCCTGCTATGCCAAATGACATGCAATGCATTTTTTCTGATTTTATAGATAAAAAAAGATTTTTAGACAATAAAAAGCCGATAAATCTAATTAAAATCCATTTTGTGTGATCTTTGTTCCTAATATTAATATCAATTGGCTAATTTGCGTGTAGGAAAAATCCTATTTTTCATTCATTTTGTTAGTTTTTTATGATGTAAATGAACATTTTAATAAACTTAATATTAGGTGTTTTTTTATTATCAATTGCTGATATACGGTCTTTGCTTATTCAATTTTCTAGAATAATGCGGCTATTTATCAAGGTTCTATAATGCGCCTGTTAATGGTTGAAATGCCTATTTTGATAGTTAAAGTGTGCTTTGTTGTGGTCGCTTTATTTTATATCTTGAAAAAGAGAGTGTAATTGATATCGTCCTTCCTCCAAATAATAAAAAATAGATTTTATTGGGGAAATCAATGTCAAAATCTAGTCAAGTTGGACTCATTTATGCCATGTGTT (double strand) [VP1409 promoter EMSA fragment] | binds | binds
